Results of unrelated studies side by side (data: NIAID ChemDB).

All rows: whole-cell or culture tests; species: Candida albicans

ECn: concentration that inhibits the pathogen or its effect by n%. Conditions beyond the fields shown may differ between rows. a–b is a range or a potency band. An empty or dashed field is not shown.

| structure | strain or isolate | read by | read-out | conditions | result |
|---|---|---|---|---|---|
| CC(n1nccn1)C(O)(Cn1cncn1)c1ccc(Cl)cc1 | TA |  | MIC |  | 100 µg/mL |
| CCCOC(=O)/C=C/c1ccccc1 |  |  | MIC |  | 0.002 µg/mL |
| CC(n1cnnn1)C(O)(Cn1cncn1)c1ccc(Cl)cc1 | TA |  | MIC |  | >100 µg/mL |
| OC(Cn1cncn1)(Cn1c(-c2ccc(Cl)cc2)nc2ccccc21)c1ccc(F)cc1F |  |  | MIC |  | 6.25–12.5 µg/mL |
| COc1cc(C(=O)O[C@H]2CC(C)(C)C=C[C@@]3(C)CC[C@@](C)(C(C)C)C23)ccc1O | SC5314 |  | MIC |  | >50 µg/mL |
| OC(Cn1cncn1)(Cn1c(Cc2ccccc2)nc2ccccc21)c1ccc(F)cc1F |  |  | MIC |  | 100–200 µg/mL |
| CNC(=S)NNC(=O)Cc1csc2nc(-c3ccc(Br)cc3)cn12 | ATCC 10231 |  | MIC |  | 32 µg/mL |
| O=S(=O)(Nc1ccc2c(c1)Sc1ccccc1O2)c1ccc(Cl)cc1 | C316 |  | MIC |  | 9 µg/mL |
| CC(n1ncnn1)C(O)(Cn1cncn1)c1ccccc1F | TA |  | MIC |  | 50 µg/mL |
| O=C(O)c1ccccc1S(=O)(=O)Nc1ccc2c(c1)Sc1ccccc1O2 | C316 |  | MIC |  | 31 µg/mL |
| CCC(C)n1ncn(-c2ccc(N3CCN(c4ccc(OC[C@H]5CO[C@](Cn6cncn6)(c6ccc(Cl)cc6Cl)O5)cc4)CC3)cc2)c1=O | ATCC64550 |  | MIC |  | 1 µg/mL |
| CN1C(=O)CS/C1=N\NC(=O)Cc1csc2nc(-c3ccc(Br)cc3)cn12 | ATCC 10231 |  | MIC |  | 32 µg/mL |
| COc1ccc(OC/C(=N/O)c2ccccc2)cc1 | ATCC 10231 | broth dilution | MIC | 24 h | >125 µg/mL |
| COc1cc(C(=O)CO[C@H]2C[C@@]3(C)O[C@H]3C[C@@]3(C)CC[C@@](O)(C(C)C)[C@H]23)ccc1O |  | broth dilution | EC90 |  | >50 µg/mL |
| O=[N+]([O-])c1ccc2ncn(CC(O)(Cn3cncn3)c3ccc(F)cc3F)c2c1 |  |  | MIC |  | 100–200 µg/mL |
| CC1=C[C@H](OCC(=O)c2ccccc2)[C@@H]2[C@](C)(CC[C@@]2(O)C(C)C)CC1=O |  | broth dilution | EC90 |  | >50 µg/mL |
| O/N=C(/COc1ccc(F)cc1)c1ccccc1 | ATCC 10231 | broth dilution | MIC | 48 h | 31.25 µg/mL |
| O=C(O)/C(O)=C(\O)c1ccccc1 |  |  | MIC |  | 0.003 µg/mL |
| Cc1c(O)cccc1C(=O)N[C@@H](CSc1ccccc1)[C@H](O)CN1C[C@H]2CCCC[C@H]2C[C@H]1C(=O)NC(C)(C)C | I3 |  | MIC |  | >64 µg/mL |
| O=C(Nc1ccc(S(=O)(=O)Nc2ccc3c(c2)Sc2ccccc2O3)cc1)Nc1ccc(Cl)c(Cl)c1 | C316 |  | MIC |  | 0.6 µg/mL |
| CC(n1nccn1)C(O)(Cn1cncn1)c1ccc(OC(F)(F)F)cc1 | TA |  | MIC |  | >100 µg/mL |
| CCCCNC(=O)/C=C/c1ccccc1 |  |  | MIC |  | 0.002 µg/mL |
| CC(C)N=C(N)c1ccc2nc(-c3ccc4c(c3)Cc3cc(-c5nc6ccc(C(N)=NC(C)C)cc6[nH]5)ccc3-4)[nH]c2c1 | Isolate 1866 |  | MIC |  | 1.56 µg/mL |
| O/N=C(\COc1ccccc1)c1ccccc1 | ATCC 10231 | broth dilution | MIC | 48 h | >125 µg/mL |
| CC1=C[C@H](OCC(=O)c2ccccc2)[C@@H]2[C@](C)(CC[C@@]2(O)C(C)C)CC1O |  | broth dilution | EC90 |  | >50 µg/mL |
| C[C@@H](n1cnnn1)[C@](O)(Cn1cncn1)c1ccc(F)cc1F | TA |  | MIC |  | 100 µg/mL |
| CC1=C[C@H](OC(=O)c2ccc(O)cc2)C2[C@](C)(CC[C@@]2(O)C(C)C)C/C1=C/CO | SC5314 |  | MIC |  | >50 µg/mL |
| O=C(Cc1csc2nc(-c3ccc(Br)cc3)cn12)N/N=C1\SCC(=O)N1c1ccccc1 | ATCC 10231 |  | MIC |  | >32 µg/mL |
| C[C@H]1[C@H](O)[C@@H](C)/C=C/C=C/C=C/C=C/C=C/C=C/C=C/[C@H](O[C@@H]2O[C@H](C)[C@@H](O)[C@H](N)[C@@H]2O)C[C@@H]2O[C@](O)(C[C@@H](O)C[C@@H](O)CC[C@H](O)[C@@H](O)C[C@@H](O)CC(=O)O[C@H]1C)C[C@H](O)[C@H]2C(=O)O |  |  | MIC |  | 0.04 µg/mL |
| CC(n1ccnn1)C(O)(Cn1cncn1)c1ccc(OC(F)(F)F)cc1 | TA |  | MIC |  | >100 µg/mL |
| O=C(/C=C/c1ccccc1)Nc1ccc([N+](=O)[O-])cc1[N+](=O)[O-] |  |  | MIC |  | 0.003 µg/mL |
| C[C@H]1[C@H](O)[C@@H](C)/C=C/C=C/C=C/C=C/C=C/C=C/C=C/[C@H](O[C@@H]2O[C@H](C)[C@@H](O)[C@H](N)[C@@H]2O)C[C@@H]2O[C@](O)(C[C@@H](O)C[C@@H](O)CC[C@H](O)[C@@H](O)C[C@@H](O)CC(=O)O[C@H]1C)C[C@H](O)[C@H]2C(=O)O | 90028 | broth dilution | MIC |  | 0.03 µg/mL |
| O=C(COc1ccc(F)cc1)c1ccccc1 | ATCC 10231 | broth dilution | MIC | 24 h | >125 µg/mL |
| O=C(Cc1csc2nc(-c3ccc(Br)cc3)cn12)N/N=C1\SCC(=O)N1c1ccc(Br)cc1 | ATCC 10231 |  | MIC |  | >32 µg/mL |
| O=C(/C=C/c1ccccc1)N(CCO)CCO |  |  | MIC |  | 0.003 µg/mL |
| Nc1cccc(S(=O)(=O)Nc2ccc3c(c2)Sc2ccccc2O3)c1 | C316 |  | MIC |  | 10 µg/mL |
| CC(n1nccn1)C(O)(Cn1cncn1)c1ccc(F)cc1 | TA |  | MIC |  | 50 µg/mL |
| COc1ccc(OCC(=O)c2ccccc2)cc1 | ATCC 10231 | broth dilution | MIC | 24 h | >125 µg/mL |
| O=C(Cc1csc2nc(-c3ccc(Br)cc3)cn12)N/N=C1\SCC(=O)N1c1ccc([N+](=O)[O-])cc1 | ATCC 10231 |  | MIC |  | 32 µg/mL |
| Nc1[nH]c(=O)ncc1F | 2915 |  | MIC |  | 0.5 µg/mL |
| O=C(Nc1nc2ccc(NC(=O)[C@@H]3CCC[C@H](NCc4ccc5ccccc5c4)C3)cc2s1)C1CCCC1 | IFM 47597 (KB) |  | MIC |  | 3.13 µM |
| COc1ccccc1-c1nc2ccccc2n1CC(O)(Cn1cncn1)c1ccc(F)cc1F |  |  | MIC |  | 50–100 µg/mL |
| C=CCNC(=S)Nc1ccc(S(=O)(=O)Nc2ccc3c(c2)Sc2ccccc2O3)cc1 | C316 |  | MIC |  | 1.1 µg/mL |